# ChEMBL document CHEMBL1201862, “PubChem BioAssay data set” (2004)
# This is one part of the list. These assays gave more results; the selection is not random. Activity calls are given as the source filed them. The rule behind the calls is not given here.
# Target: T1, Aberrant vpr protein (Human immunodeficiency virus 1) (UniProt Q77YF9)
# T1 sequence (whole entry): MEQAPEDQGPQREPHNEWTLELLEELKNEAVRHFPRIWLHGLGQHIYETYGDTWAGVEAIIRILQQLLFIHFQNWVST
# Assay: qHTS Assay for Inhibitors of the HIV-1 protein Vpr.
# Type: functional
row,SMILES,Potency
1,COc1ccc2nc(NP(=O)(c3ccccc3)c3ccccc3)sc2c1,inactive
2,O=C(OC1CN2CCC1CC2)c1cccc([N+](=O)[O-])c1 (centres undefined),inactive
3,O=P1(Nc2ccc(Br)cn2)COc2ccccc2OC1,inactive
4,Cc1ccccc1CN(C)C(=O)COC(=O)C(O)(c1ccccc1)c1ccccc1,inactive
